Data as given in PubChem BioAssay AID624099 (ICCB-Longwood, 2012).
Test: 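Knock-downs relieving repression by E2 of an HPV18 LCR luciferase reporter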 (primary screen). Cell system: human C33A cervical carcinoma cells (HPV-negative) stably expressing BPV1 E2 and an HPV18 LCR luciferase reporter. Reagents: siRNA pool against human genes, 40 nM. Timing: 72 h. Measurement: 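HPV18 LCR reporter light per well, converted to plate-wise z-scores that exclude control wells, and averaged over triplicate plates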. Scale: mean z-score and z-score: higher = stronger reporter signal, weaker E2 silencing. Call rule: 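Hit if mean z-score reaches 2 and two or more of three replicate z-scores also reach 2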.
Shown is one part, drawn at random, of about 21,000 deposited reagents. Of all reagents, 497 (2.4%) were called active. 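Higher z means weaker E2 silencing; only reporter increases were scored, and knock-downs that hurt cell survival may mask genuine repressor factors.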

CHCHD10 [SID134330012] → mean z-score = 1.75; z-score, replicate A = 1.95; z-score, replicate B = 1.39; z-score, replicate C = 1.92; call = inactive
UBL4A [SID134324316] → mean z-score = 0.17; z-score, replicate A = 0.33; z-score, replicate B = -0.16; z-score, replicate C = 0.34; call = inactive
ETS1 [SID134310133] → mean z-score = -0.05; z-score, replicate A = 0.22; z-score, replicate B = -0.04; z-score, replicate C = -0.33; call = inactive
CAPN10 [SID134311227] → mean z-score = 0.19; z-score, replicate A = -0.12; z-score, replicate B = 0.04; z-score, replicate C = 0.65; call = inactive
ACP2 [SID134313091] → mean z-score = -0.22; z-score, replicate A = 0.17; z-score, replicate B = -0.72; z-score, replicate C = -0.1; call = inactive
IGHV1OR21-1 [SID134328615] → mean z-score = -0.45; z-score, replicate A = -0.07; z-score, replicate B = -0.78; z-score, replicate C = -0.49; call = inactive
ATE1 [SID134317016] → mean z-score = 1.17; z-score, replicate A = 1.42; z-score, replicate B = 0.78; z-score, replicate C = 1.3; call = inactive
DBP [SID134321607] → mean z-score = -1.08; z-score, replicate A = -0.79; z-score, replicate B = -1.53; z-score, replicate C = -0.92; call = inactive
WDR76 [SID134318653] → mean z-score = -0.24; z-score, replicate A = -0.37; z-score, replicate B = -0.34; z-score, replicate C = -0.01; call = inactive
RBM33 [SID134319240] → mean z-score = -0.3; z-score, replicate A = -0.46; z-score, replicate B = -0.2; z-score, replicate C = -0.26; call = inactive
RBM33 [SID134327713] → mean z-score = -1.16; z-score, replicate A = -1.35; z-score, replicate B = -1.2; z-score, replicate C = -0.95; call = inactive

Continued; the last 3 above are carried over.
WDR76 [SID134318653] → mean z-score = -0.24; z-score, replicate A = -0.37; z-score, replicate B = -0.34; z-score, replicate C = -0.01; call = inactive
RBM33 [SID134319240] → mean z-score = -0.3; z-score, replicate A = -0.46; z-score, replicate B = -0.2; z-score, replicate C = -0.26; call = inactive
RBM33 [SID134327713] → mean z-score = -1.16; z-score, replicate A = -1.35; z-score, replicate B = -1.2; z-score, replicate C = -0.95; call = inactive
RHPN1 [SID134319214] → mean z-score = -0.29; z-score, replicate A = -0.1; z-score, replicate B = -0.34; z-score, replicate C = -0.42; call = inactive
SMC5 [SID134318295] → mean z-score = -0.33; z-score, replicate A = -0.01; z-score, replicate B = -0.69; z-score, replicate C = -0.29; call = inactive
IL10RA [SID134312860] → mean z-score = 0.5; z-score, replicate A = 0.52; z-score, replicate B = 0.5; z-score, replicate C = 0.47; call = inactive
GLIS1 [SID134320962] → mean z-score = -0.69; z-score, replicate A = -1.34; z-score, replicate B = -0.53; z-score, replicate C = -0.2; call = inactive
WNT6 [SID134314559] → mean z-score = 0.2; z-score, replicate A = 0.15; z-score, replicate B = 0.25; z-score, replicate C = 0.2; call = inactive
ANO7L1 [SID134325313] → mean z-score = 0.92; z-score, replicate A = 1.14; z-score, replicate B = 0.99; z-score, replicate C = 0.64; call = inactive
BALR6 [SID134327307] → mean z-score = -0.53; z-score, replicate A = -0.25; z-score, replicate B = -0.82; z-score, replicate C = -0.52; call = inactive
NUDT21 [SID134316613] → mean z-score = 1.22; z-score, replicate A = 1.26; z-score, replicate B = 1.18; z-score, replicate C = 1.21; call = inactive
CEBPB [SID134311782] → mean z-score = -0.43; z-score, replicate A = -0.41; z-score, replicate B = -0.59; z-score, replicate C = -0.3; call = inactive
TYSND1 [SID134322319] → mean z-score = -1.63; z-score, replicate A = -1.63; z-score, replicate B = -1.36; z-score, replicate C = -1.9; call = inactive
CXorf66 [SID134326226] → mean z-score = 0.3; z-score, replicate A = 0.22; z-score, replicate B = 0.52; z-score, replicate C = 0.16; call = inactive
LOC151261 (retired record) [SID134325569] → mean z-score = 0.58; z-score, replicate A = 0.33; z-score, replicate B = 0.39; z-score, replicate C = 1.02; call = inactive
PPARGC1B [SID134313423] → mean z-score = 0.26; z-score, replicate A = 0.21; z-score, replicate B = 0.28; z-score, replicate C = 0.29; call = inactive
CHTF8 [SID134329816] → mean z-score = 0.36; z-score, replicate A = 0.51; z-score, replicate B = 0.45; z-score, replicate C = 0.12; call = inactive
SPATA6 [SID134324119] → mean z-score = -0.6; z-score, replicate A = -0.75; z-score, replicate B = -0.36; z-score, replicate C = -0.68; call = inactive
ZNF639 [SID134312109] → mean z-score = 1.49; z-score, replicate A = 1.78; z-score, replicate B = 1.64; z-score, replicate C = 1.04; call = inactive
